Anti-infective test results gathered from many reports (values: NIAID ChemDB through PubChem).

Shared fields: whole-cell or culture tests; agent: Human cytomegalovirus; cells: HEL; read-out: EC50

Blank or dashed fields: not listed here. ECn is the concentration giving n% inhibition of infection, replication or growth. Neighbouring rows are from separate reports.

smiles	strain	method	value
CCCCCCCCCCC#Cc1cn(S(=O)(=O)c2ccc(C)cc2)c(=O)[nH]c1=O	DAVIS	cytopathic effect	>80 µM
CC(C)Nc1ncnc2c1ncn2C1C[C@H](CO)[C@@H](CO)C1	AD169	-	>100 µg/mL
O=C1NCC2(C(=O)C3C=CC=CC13)C1CC3CC(C1)CC2C3	AD169	plaque count	>20 µg/mL
N#CC1C(c2ccccc2)Nc2ccccc2S1(=O)=O	DAVIS	cytopathic effect	>20 µg/mL
CCCCc1cc2cnc(=O)[nH]c2o1	AD169	cytopathic effect	>400 µM
Nc1nc2c(ncn2COC(CO)CO)c(=O)[nH]1	AD169	plaque count	0.77 µg/mL
Nc1ncnc2c1ncn2C[C@@H](CO)OCP(=O)(O)O	AD169	plaque count	0.21 µM
C/C(=N/NC(N)=S)c1ccc(NC(=O)CN2C(=O)c3ccccc3S2(=O)=O)cc1	AD169	plaque count	>100 µM
Nc1cccc2c1C(=O)N(C1C3CC4CC(C3)CC1C4)C2=O	AD169	plaque count	>100 µg/mL
Nc1ncnc2c1ncn2C(CF)CCCO	AD169	cytopathic effect	>50 µg/mL
Cc1cc([C@@H]2C[C@H](O)[C@@H](CO)O2)c(F)cc1F	DAVIS	cytopathic effect	>200 µM
O=c1[nH]c(=O)n(C2C[C@H](CO)[C@@H](CO)C2)cc1I	DAVIS	-	>100 µg/mL
N#CC1C(c2ccc(Cl)cc2)Nc2c(ccn2Cc2ccccc2)S1(=O)=O	AD169	cytopathic effect	>5 µg/mL
CCCCCCCc1cc2cnc(=O)[nH]c2o1	DAVIS	cytopathic effect	>400 µM
C/C(=N/Nc1nc(-c2ccccc2)cs1)c1ccc(NC(=O)CN2C(=O)c3ccccc3S2(=O)=O)cc1	DAVIS	plaque count	20 µM
Nc1ncnc2c1ncn2CC[C@H](O)CCO	DAVIS	cytopathic effect	>400 µg/mL
CC(C)NS(=O)(=O)c1ccccc1C(=O)NNC(=O)c1ccc(Cl)cc1	DAVIS	plaque count	>100 µM
O=c1[nH]c(=O)n([C@@H]2C[C@H](CO)C[C@H]2CO)cc1I	DAVIS	-	>100 µg/mL
Cc1cc([C@@H]2C[C@H](O)[C@@H](CO)O2)c(Cl)cc1F	AD169	cytopathic effect	>200 µM
CCCCCCc1cc2cn(C3CCCO3)c(=O)nc2o1	AD169	plaque count	>50 µM
O=C(O)P(=O)(O)O	Foscarnet-resistant	plaque count	340.7 µM
OC[C@H]1O[C@H](c2cc(F)c(F)cc2F)C[C@@H]1O	DAVIS	cytopathic effect	>200 µM
O=C1c2cccc([N+](=O)[O-])c2C(=O)N1C1C2CC3CC(C2)CC1C3	DAVIS	plaque count	>100 µg/mL
Cc1ccc(C)c(NC(=O)CN2C(=O)c3ccccc3S2(=O)=O)c1	DAVIS	plaque count	>100 µM
O=C1c2ccccc2[C@]2(O)C3C4C[C@H]5CC(C[C@H]3C5)C4N12	AD169	plaque count	>100 µg/mL
Nc1ncnc2c1ncn2C[C@H]1COP(=O)(O)CO1	AD169	flow cytometry	1.78 µM
Cc1ccc(S(=O)(=O)n2cc(I)c(=O)[nH]c2=O)cc1	DAVIS	cytopathic effect	>80 µM
NC(=O)c1c(Cl)c(-c2cccnc2)n2c1CCCC2	LY9990 (ganciclovir-resistant)	plaque count	0.0003 µM
COC(=O)CC[C@@H]1C[C@H]2CCC[C@](NC(=O)c3ccccc3C(=O)N[C@@]34CCC[C@@H](C[C@H](CCC(=O)OC)C3)C4)(C2)C1	DAVIS	plaque count	>100 µg/mL
CCCCc1cc2cn(CCC(C)C)c(=O)nc2o1	DAVIS	plaque count	>200 µM
Nc1nc2c(ncn2C[C@]2(CO)C[C@H]2CO)c(=O)[nH]1	AD169	plaque count	8 µg/mL
Nc1ccn(CC[C@H](O)CCO)c(=O)n1	DAVIS	cytopathic effect	>400 µg/mL
CCCCCCc1cc2cnc(OC3CCCC3)nc2o1	AD169	plaque count	14 µM
Nc1ccn(CCCC(O)CF)c(=O)n1	DAVIS	cytopathic effect	12 µg/mL
Cc1ccc(S(=O)(=O)NNC(=O)c2ccccc2S(=O)(=O)NC(C)C)cc1	AD169	plaque count	>100 µM
CO[C@H](CO)[C@@H](O)CCn1cnc2c(=O)[nH]c(N)nc21	DAVIS	cytopathic effect	>400 µg/mL
CCCCCCCCC#Cc1cn(S(=O)(=O)c2ccc(C)cc2)c(=O)[nH]c1=O	AD169	cytopathic effect	>80 µM
O=C1c2ccccc2C(=O)N1[C@@H]1CC2CC3CC(C2)C1C3	DAVIS	plaque count	>100 µg/mL
CO[C@H](CO)[C@@H](O)CCn1cc(C)c(=O)[nH]c1=O	DAVIS	cytopathic effect	>400 µg/mL
Nc1nc2c(ncn2CCC(CO)CO)c(=O)[nH]1	DAVIS	plaque count	>50 µg/mL
CC(C)(C)c1nc2ccccn2c1NC(=S)Nc1ccccc1	DAVIS	cytopathic effect	27 µg/mL
O=C1NC[C@@H]2C34CC5CC(CC(C5)[C@H]3[C@]2(O)c2ccccc21)C4	DAVIS	plaque count	>20 µg/mL
O=c1ccn([C@@H]2O[C@H](/C=C/C=C(Br)Br)[C@@H](O)[C@H]2O)c(=O)[nH]1	DAVIS	-	>120 µM
Cc1nc2ccccn2c1NC(=O)Nc1ccccc1	DAVIS	cytopathic effect	33 µg/mL
Nc1nc2c(ncn2CCCC(O)CF)c(=O)[nH]1	DAVIS	cytopathic effect	>50 µg/mL
Nc1nc2c(ncn2COC(CO)CO)c(=O)[nH]1	AD169	plaque count	15.7 µM
N#CC1C(c2ccc(Cl)cc2)Nc2ccccc2S1(=O)=O	DER530 (GCV CDV-resistant)	cytopathic effect	5.6 µg/mL
Nc1ccn(C[C@@H](CO)OCP(=O)(O)O)c(=O)n1	AD169	flow cytometry	0.72 µM
CCCCCCc1cc2cnc(OC3CCCCC3)nc2o1	AD169	plaque count	>5 µM
COc1ccc(/C=N/NC(=O)c2ccccc2S(=O)(=O)NC(C)C)cc1	AD169	plaque count	>100 µM
Cc1c(S(=O)(=O)c2ccc(Cl)cc2)c(NC(=O)C(F)(F)F)n(Cc2ccccc2)c1C	AD169	cytopathic effect	1.3 µg/mL
OC[C@H]1O[C@@H](c2cc(Br)c(F)cc2F)C[C@@H]1O	AD169	cytopathic effect	>200 µM
C/C(=N/Nc1nc(-c2ccc(Cl)cc2)cs1)c1ccc(NC(=O)CN2C(=O)c3ccccc3S2(=O)=O)cc1	DAVIS	plaque count	20 µM

The last 8 rows once more:

smiles | strain | method | value
Nc1nc2c(ncn2COC(CO)CO)c(=O)[nH]1 | AD169 | plaque count | 15.7 µM
N#CC1C(c2ccc(Cl)cc2)Nc2ccccc2S1(=O)=O | DER530 (GCV CDV-resistant) | cytopathic effect | 5.6 µg/mL
Nc1ccn(C[C@@H](CO)OCP(=O)(O)O)c(=O)n1 | AD169 | flow cytometry | 0.72 µM
CCCCCCc1cc2cnc(OC3CCCCC3)nc2o1 | AD169 | plaque count | >5 µM
COc1ccc(/C=N/NC(=O)c2ccccc2S(=O)(=O)NC(C)C)cc1 | AD169 | plaque count | >100 µM
Cc1c(S(=O)(=O)c2ccc(Cl)cc2)c(NC(=O)C(F)(F)F)n(Cc2ccccc2)c1C | AD169 | cytopathic effect | 1.3 µg/mL
OC[C@H]1O[C@@H](c2cc(Br)c(F)cc2F)C[C@@H]1O | AD169 | cytopathic effect | >200 µM
C/C(=N/Nc1nc(-c2ccc(Cl)cc2)cs1)c1ccc(NC(=O)CN2C(=O)c3ccccc3S2(=O)=O)cc1 | DAVIS | plaque count | 20 µM